Source: PubChem BioAssay AID200 (DTP/NCI, 2004)
Values joined by “and” are separate entries in the source; they are usually repeats but may differ in a detail not shown here. Equal entries are not always repeated. Inconclusive results and toxic doses are left out. How the source made its calls: active means survival T/C of 150% or more; inactive means T/C below 125% in these data.

System: B6C3F1 mice, B16 melanoma ip, median survival T/C
Assay: NCI In Vivo Anticancer Drug Screen. Data for tumor model B16 Melanoma (intraperitoneal) in B6C3F1 mice
Settings: endpoint: median survival time, schedule: Q01DX009 (ip), vehicle: saline, higher = longer survival
Protocol: The antitumor activity of compounds was measured in mice bearing transplantable tumors. Survival or tumor size were measured and the results are expressed as the measurement made in the treated group (T) divided by the measurement made in the vehicle treated control group (C). The tumor model used in this assay is B16 Melanoma (intraperitoneal) in B6C3F1 mice

Measured: T/C

O=P1(N(CCCl)CCCl)NC(SCCS(=O)(=O)O)CCO1 (stereo not given)
active: dose: 6.25 mg/kg/injection 178 % of control | dose: 12.5 mg/kg/injection 197 % of control and 202 % of control | dose: 25.0 mg/kg/injection 218 % of control and 242 % of control | dose: 50.0 mg/kg/injection 266 % of control and 344 % of control | dose: 100.0 mg/kg/injection 333 % of control and 344 % of control
